In publication PMC8228141, “Antiprotozoal Nor-Triterpene Alkaloids from Buxus sempervirens L” (Antibiotics, 2021):

Tests used:
[1] = test system: Plasmodium falciparum (Pf) (intraerythrocytic forms, NF54 strain); assay: In vitro antiplasmodial activity; type: cell-based; conditions: cytotoxicity L6 vs Pf
Protocol: (§1) After isolation, all alkaloids were tested in vitro for antiplasmodial and antitrypanosomal activity against Plasmodium falciparum (Pf) and Trypanosoma brucei rhodesiense (Tbr). Furthermore, to assess their selectivity against the parasites, cytotoxicity against L6 rat skeletal myoblasts, as mammalian control cells, was tested (Table 4).
(§2) In vitro assays for the bioactivity of the isolated Buxus-alkaloids against Tbr (bloodstream trypomastigotes, STIB 900 strain), Trypanosoma cruzi (Tc) (amastigotes, Tulahuen C4 strain), Leishmania donovani (Ldo) (amastigotes, MHOM-ET-67/L82 strain) and Pf (intraerythrocytic forms, NF54 strain), and cytotoxicity tests against mammalian cells (L6-cell line from rat-skeletal myoblasts), were performed at the Swiss Tropical and Public Health Institute (Swiss TPH, Basel, Switzerland) according to established standard protocols.

[2] = test system: Trypanosoma brucei rhodesiense (Tbr) (bloodstream trypomastigotes, STIB 900 strain); assay: In vitro antitrypanosomal activity; type: cell-based; conditions: cytotoxicity L6 vs Tbr
Protocol: as §1
as §2, with “protocols. […] Such a pattern of activity was also observed in other studies.” for “protocols.”

## CN[C@@H](C)[C@H]1[C@H](O)C[C@@]2(C)[C@@H]3C=C[C@H]4C(C)(C)[C@@H](N(C)C)CC[C@@]45C[C@@]35CC[C@]12C [Compound 2, Cyclovirobuxeine-B]
[1]
  SI Pf (selectivity index): 14
[2]
  SI Tbr (selectivity index): 25

## CC(C1C(O)CC2(C)C3C=CC4C(C)(CO)C(N(C)C)CCC45CC35CCC12C)N(C)C (stereo not shown) [Compound 5, Cyclomicrophylline-A]
[1]
  SI Pf (selectivity index): 56
[2]
  SI Tbr (selectivity index): 42

## CC(C1C(OC(=O)c2ccccc2)CC2(C)C3C=CC4C(C)(CO)C(N(C)C)CCC45CC35CCC12C)N(C)C (stereo not shown) [Compound 6, Cyclomicrophyllidine-A]
[1]
  SI Pf (selectivity index): 23
[2]
  SI Tbr (selectivity index): 14

## CC(=O)OC[C@]1(C)[C@@H](NC(=O)c2ccccc2)CC[C@]23C[C@]24C(=O)C[C@]2(C)[C@@H]([C@H](C)N(C)C)CC[C@@]2(C)[C@@H]4CC[C@@H]13 [Compound 9, N-benzoyl-O-acetyl-cycloxo-buxoline-F]
[1]
  SI Pf (selectivity index): 19
[2]
  SI Tbr (selectivity index): 30

## C[C@@H]([C@H]1[C@H](O)C[C@@]2(C)[C@@H]3CC[C@H]4C(C)(C)C(=O)C=C[C@@]45C[C@@]35CC[C@]12C)N(C)C [Compound 12, Nb-dimethylcycloxobuxoviricine]
[1]
  SI Pf (selectivity index): 14
[2]
  SI Tbr (selectivity index): 8

## C=C1[C@@H](N(C)C)CC[C@]23C[C@]24CC[C@]2(C)[C@@H](C(C)=O)[C@H](O)C[C@@]2(C)[C@@H]4CC[C@@H]13 [Compound 18, Cyclomicrobuxine]
[1]
  SI Pf (selectivity index): 10
[2]
  SI Tbr (selectivity index): 2

## C[C@@H]([C@H]1CC[C@H]2[C@@H]3CC=C4C[C@@H](O)CC[C@]4(C)[C@H]3CC[C@]12C)N(C)C [Compound 19, Irehine]
[1]
  SI Pf (selectivity index): 10
[2]
  SI Tbr (selectivity index): 6

## CC(=O)[C@H]1[C@H](O)C[C@@]2(C)[C@@H]3CC[C@@H]4C(=CC3=CC[C@]12C)CC[C@H](N(C)C)C4(C)C [Compound 20, 16-α-hydroxybuxaminone]
[1]
  SI Pf (selectivity index): 28
[2]
  SI Tbr (selectivity index): 9

## CC(=O)N[C@@H](C)[C@H]1CC[C@@]2(C)[C@@H]3CC[C@@H]4C(=CC3=CC[C@]12C)CC[C@H](N(C)C)C4(C)C [Compound 21, N20-acetylbuxamine-E]
[1]
  SI Pf (selectivity index): 18
[2]
  SI Tbr (selectivity index): 1

## CC(=O)O[C@@H]1C[C@@]2(C)[C@@H]3CC[C@@H]4C(=CC3=CC[C@]2(C)[C@H]1[C@H](C)NC(=O)c1ccccc1)CC[C@H](N(C)C)C4(C)C [Compound 22, N-benzoyl-O-acetylbuxodienine-E]
[1]
  SI Pf (selectivity index): 3
[2]
  SI Tbr (selectivity index): 3

## O-tigloylcyclovirobuxeine-B [Compound 1]
[1]
  SI Pf (selectivity index): 18
[2]
  SI Tbr (selectivity index): 6
